Pooled drug test results. Numbers come from NIAID ChemDB, via PubChem.

Common to all: cytotoxicity tests; cell line: KB; read-out: CC50

CCn is the concentration with n% toxicity to the cells. Rows are shuffled and stem from different studies. Blank or dashed fields: not listed here.

compound	read by	value
CC1=C[C@@H]2[C@@H](CC1)[C@@](C)(S)CC[C@H]2C(C)C		>20 µg/mL
OCC(CO)OCn1c(Br)nc(Br)c1Br		>100 µM
Oc1c(Cl)c(Oc2cc(Cl)cc(Cl)c2)cc(Oc2ccc(Cl)cc2Cl)c1Cl		>20 µg/mL
OC[C@H]1O[C@@H](n2c(Br)nc(Cl)c2Cl)[C@H](O)[C@@H]1O		>100 µM
CC(C)=CC[C@H]1C[C@@]2(C[C@H]3CCC(C)(C)C=C3C)C(=O)[C@](C(=O)c3ccccc3)(C(=O)C3=C2OC(C)(C)C=C3)C1(C)C	sulforhodamine / absorbance	>50 µM
O=C(Oc1c(-c2ccc(Cl)c(Cl)c2)oc2ccccc2c1=O)c1cc(O)c(O)c(O)c1		4.5 µM
C=C(C)[C@@H]1CC[C@]2(COC(C)=O)CC[C@]3(C)[C@H](CC[C@@H]4[C@@]5(C)CC[C@H](OC(C)=O)C(C)(C)[C@@H]5CC[C@]43C)[C@@H]12		>20 µg/mL
OCCOCn1c(Br)nc(Cl)c1Cl		>100 µM
OC[C@H]1O[C@@H](n2c(Cl)nc3cc(Cl)c(Cl)cc32)[C@H](O)[C@@H]1O		210 µM
OC[C@H]1O[C@@H](n2c(Cl)nc(Cl)c2Cl)[C@H](O)[C@H]1O		>100 µM
CC1Oc2cc(O)c3c(=O)c4ccc(O)c(O)c4oc3c2C1(C)C	sulforhodamine / absorbance	1.68 µM
OC[C@H]1O[C@@H](n2c(SCc3ccccc3)nc3nc4cc(Cl)c(Cl)cc4cc32)[C@H](O)[C@@H]1O		40 µM
CCC[C@@H](OC(C)=O)C1=C(Br)/C(=C/Br)OC1=O		0.5 µg/mL
COc1cc(O)cc2oc3cc(O)c(O)cc3c(=O)c12	sulforhodamine / absorbance	>50 µM
OCCOCn1c(Cl)nc(Cl)c1Cl		25 µM
CC(C)Nc1nc2cc3cc(Cl)c(Cl)cc3nc2n1[C@@H]1O[C@H](CO)[C@@H](O)[C@H]1O		90 µM
COc1cc(-c2ccccc2)c(O)c(OC)c1O	sulforhodamine / absorbance	>50 µM
CN1C=N[C@H](C(=O)O)C[C@]1(C)COC(=O)c1ccc[nH]1		>20 µg/mL
C/C(=C\C=C\C(C)[C@H]1CC[C@@]2(C)[C@@H]3CC[C@H]4C(C)(C)C(=O)CC[C@]4(C)C3=CC[C@]12C)C(=O)O	sulforhodamine / absorbance	>50 µM
OC[C@H]1O[C@@H](n2c(Cl)nc3cc4cc(Cl)c(Cl)cc4cc32)[C@H](O)[C@@H]1O		19 µM
CC(C)(O)C1=CC[C@@]2(C)C[C@@H]3O[C@]3(C)CC[C@@H]3O[C@@]3(C)CC[C@H]12		>20 µg/mL
COc1cc(C(=O)Oc2c(-c3ccc(Cl)cc3)oc3ccccc3c2=O)ccc1O		20 µM
CC1(C)[C@@H](Br)CC[C@]2(C)O[C@H]3COC(=O)C3=CC[C@@H]12		7.2 µg/mL
OC[C@H]1O[C@@H](n2cnc3cc(Cl)c(Cl)cc32)[C@H](O)[C@@H]1O		36 µM
OC[C@H]1O[C@@H](n2c(NC3CC3)nc3nc4cc(Cl)c(Cl)cc4cc32)[C@H](O)[C@@H]1O		>100 µM
O=C(Oc1c(-c2ccc(Cl)cc2)oc2ccccc2c1=O)c1cc(OCc2ccccc2)c(OCc2ccccc2)c(OCc2ccccc2)c1		>100 µM
OC[C@H]1O[C@@H](n2c(Br)nc(Cl)c2Cl)[C@@H](O)[C@@H]1O		>100 µM
O=C(Oc1c(-c2ccc(Cl)c(Cl)c2)oc2ccccc2c1=O)c1cc(OCc2ccccc2)c(OCc2ccccc2)c(OCc2ccccc2)c1		>100 µM
[C-]#[N+][C@@]1(C)CC[C@H]2[C@H]3[C@H]4C(=CC[C@@H]31)CC(C)(C)C[C@@H]4C[C@@H]2C		>20 µg/mL

For reference, 2 entries again:

compound	read by	value
CC(C)Nc1nc2cc3cc(Cl)c(Cl)cc3nc2n1[C@@H]1O[C@H](CO)[C@@H](O)[C@H]1O		90 µM
O=C(Oc1c(-c2ccc(Cl)cc2)oc2ccccc2c1=O)c1cc(OCc2ccccc2)c(OCc2ccccc2)c(OCc2ccccc2)c1		>100 µM